Assay results taken from patent publication US5023359A, “Use of organic salts of copper for the treatment of honeybee's parasitic diseases” (priority 1990, dated 1991).

What was measured:
[1] = Comparative content of copper in the honey in the bodies of the hives, copper gluconate vs copper sulphate; assay type: in vivo; details: N = 4
[2] = Residual amounts of copper in honey after administration (atomic absorption), 64 hives; assay type: in vivo; details: after 7 ± 1 months
[3] = 2,50 g total amount per hive, N = 21
[4] = 3,00 g total amount per hive, N = 6

Compound | Content in copper in the honey in the bodies of the hives ([1]; Table B, 1,25 g total per hive (0,319 g mineral copper)) | Content in copper in the honey in the bodies of the hives ([1]; Table B, 2,00 g total per hive (0,510 g mineral copper)) | Residual copper in honey, super ([2]; 1,25 g total amount per hive, N = 19) | Residual copper in honey, body of the hive ([2]; 1,25 g total amount per hive, N = 28) | Residual copper in honey, body of the hive [2, 3] | Residual copper in honey, super [2, 3] | Residual copper in honey, body of the hive [2, 4] | Residual copper in honey, super [2, 4] | Content in copper in the honey in the bodies of the hives ([1]; Table A, 1,35 g total per hive (0,189 g mineral copper)) | Content in copper in the honey in the bodies of the hives ([1]; Table A, 3,38 g total per hive (0,473 g mineral copper)) | Content in copper in the honey in the bodies of the hives ([1]; Table A, 6,75 g total per hive (0,945 g mineral copper))
O=S(=O)([O-])[O-].[Cu+2] [copper sulphate, reference compound] | 4,37 ± 2,89 mg/kg | 8,03 ± 10,46 mg/kg |  |  |  |  |  |  |  |  | 
Copper gluconate |  |  | 2,7 ± 1,7 mg/kg | 5,3 ± 2,5 mg/kg | 1,0 ± 0,25 mg/kg | 0,8 ± 1,0 mg/kg | 1,6 ± 1,0 mg/kg | 0,6 ± 0,1 mg/kg | 0,686 ± 0,084 mg/kg | 0,836 ± 0,296 mg/kg | 0,656 ± 0,014 mg/kg
